Pooled drug test results. Numbers come from NIAID ChemDB, via PubChem.

Common to all: target-level tests; species: HIV-1; target: Protease; read-out: IC50

Rows are shuffled and stem from different studies. An empty or dashed field is not shown. ICn: concentration for n% inhibition.

compound,strain or isolate,mutations,read by,setting,result
O=c1oc2c(-c3ccccc3)cccc2c(O)c1Cc1ccccc1,-,-,HPLC,pH 5.2,8.1 µM
O=C(N[C@H](CO)[C@H](O)c1ccc([N+](=O)[O-])cc1)C(Cl)Cl,-,-,substrate cleavage / HPLC,-,>50 µM
CC(C)C[C@H](NC(=O)[C@@H](NC(=O)CCCCCCCCCCCCCCC(=O)N[C@@H](CC(N)=O)C(=O)N[C@@H](CCc1ccccc1)C(=O)O)C(C)O)C(=O)N[C@@H](Cc1ccccc1)C(N)=O,-,-,-,-,4.4 µM
O=c1oc2ccccc2c(O)c1CCCOc1ccccc1,-,-,HPLC,pH 5.2,2.7 µM
CC(C)(C)NC(=O)[C@@H]1CCCCN1C(=O)[C@@H](O)[C@H](Cc1ccccc1)NC(=O)[C@H](CC(N)=O)NC(=O)OCc1ccccc1,-,-,HPLC,-,0.182 µM
CC(C)[C@H](NC(=O)N(C)Cc1ccccn1)C(=O)N[C@@H](Cc1ccccc1)[C@H](O)[C@H](O)[C@H](Cc1ccccc1)NC(=O)[C@@H](NC(=O)N(C)Cc1ccccn1)C(C)C,-,PR-A71T V82A,HPLC,-,0.0049 µM
O=c1c2ccccc2n2nnc3ccc(NCCCN4CCN(CCCNc5ccc6nnn7c8ccccc8c(=O)c5c67)CC4)c1c32,-,-,HPLC,-,>100 µM
O=C(/C=C/c1ccc(O)c2c1[C@H](C(=O)O)[C@@H](c1ccc(O)c(O)c1)O2)O[C@H](Cc1ccc(O)c(O)c1)C(=O)O,-,-,fluorescence,-,25.39 µg/mL
Cc1cc(-c2ccc(N=Nc3ccc4c(S(=O)(=O)O)cc(S(=O)(=O)O)c(N)c4c3O)c(C)c2)ccc1N=Nc1ccc2c(S(=O)(=O)O)cc(S(=O)(=O)O)c(N)c2c1O,-,-,HPLC,-,0.48 µM
CCc1c(O)cc(-c2ccccc2)oc1=O,-,-,HPLC,pH 5.2,11 µM
CSC[C@H](NC(=O)COc1cccc2ccccc12)C(=O)N[C@@H](Cc1ccccc1)[C@H](O)C(=O)N1CSC(C)(C)[C@H]1C(=O)NC(C)(C)C,-,-,HPLC,-,0.0036 µM
N[C@@H](CCC(=O)N[C@@H](CSN=O)C(=O)NCC(=O)O)C(=O)O,-,-,-,-,<30 µM
CC[C@H](C)/C=C(C)/C=C/C1=CC2=C(Cl)C(=O)[C@](C)(OC(C)=O)C(=O)C2=CO1,-,-,-,-,62.7 µg/mL
CC(C)(C)NC(=O)[C@H]1N(C(=O)[C@@H](O)[C@H](Cc2ccccc2)NC(=O)[C@H](CC(N)=O)NC(=O)COc2cccc3ccccc23)CSC1(C)C,-,-,HPLC,-,0.019 µM
CC(C)(C)NC(=O)[C@@H]1C[C@@H]2CCCC[C@@H]2N1C(=O)[C@@H](O)[C@H](Cc1ccc(O)cc1)NC(=O)[C@H](CC(N)=O)NC(=O)COc1cccc2ccccc12,BRU,-,substrate cleavage,-,0.01 µM
CCC[C@H](NC(=O)COc1cccc2ccccc12)C(=O)N[C@@H](Cc1ccccc1)[C@H](O)C(=O)N1CSC[C@H]1C(=O)NC(C)(C)C,-,-,HPLC,-,0.0088 µM
CC(C)(C)NC(=O)[C@@H]1[C@@H]2CCCC[C@@H]2CN1C(=O)[C@@H](O)[C@H](Cc1ccccc1)NC(=O)[C@H](CC(N)=O)NC(=O)c1ccc2ccccc2c1,BRU,-,substrate cleavage,-,0.0013 µM
CC(C)(C)OC(=O)[C@@H]1CCCN1C[C@@H](O)[C@H](Cc1ccccc1)NC(=O)[C@H](CC(N)=O)NC(=O)c1ccc2ccccc2c1,-,-,absorbance,-,0.05 µM
CC(C)(C)NC(=O)[C@@H]1CCCN1C(=O)[C@@H](O)[C@H](Cc1ccccc1)NC(=O)[C@H](CC(N)=O)NC(=O)OCc1cccc2ccccc12,-,-,HPLC,-,0.0035 µM
Nc1ccc2c(O)c(N=Nc3ccc(N=Nc4ccc(N=Nc5cc(S(=O)(=O)O)c6cccc(S(=O)(=O)O)c6c5)c5ccccc45)c4ccc(S(=O)(=O)O)cc34)c(S(=O)(=O)O)cc2c1,-,-,HPLC,-,>100 µM
CC(=O)NC(C(=O)O)(C(=O)O)c1cc2ccccc2s1,-,-,substrate cleavage / HPLC,-,>50 µM
CC(C)(C)NC(=O)[C@@H]1C[C@@H]2CCCC[C@@H]2N1C(=O)[C@@H](O)[C@H](Cc1ccccc1)NC(=O)[C@H](CC(N)=O)NC(=O)COc1ccc2cc(Br)ccc2c1,BRU,-,substrate cleavage,-,0.0058 µM
CC(C)C[C@H](NC(=O)[C@@H](NC(=O)CCCCCCCCCCCCCCC(=O)N[C@@H](CC(N)=O)C(=O)N[C@@H](Cc1ccc(O)cc1)C(=O)O)C(C)O)C(=O)N[C@@H](Cc1ccccc1)C(N)=O,-,-,-,-,30 µM
CC(C)[C@H](NC(=O)OCc1ccccc1)C(=O)N[C@@H](Cc1ccccc1)[C@@H](O)[C@H](CO)[C@H](Cc1ccccc1)NC(=O)[C@H](CC(C)(C)C)NC(=O)OCc1ccccc1,-,-,-,-,0.035 µM
CCCC[C@H](NC(=O)[C@@H](NC(=O)[C@H](Cc1cccc2ccccc12)CS(=O)(=O)C(C)(C)C)C(C)C)[C@@H](O)[C@H](O)[C@H](CCCC)NC(=O)[C@@H](NC(=O)[C@H](Cc1cccc2ccccc12)CS(=O)(=O)C(C)(C)C)C(C)C,D34,-,HPLC,-,0.001 µM
CC(C)(C)OC(=O)N[C@@H](Cc1ccccc1)[C@H](O)CNC[C@@H](O)[C@H](Cc1ccccc1)NC(=O)C1(O)CCc2ccccc21,-,-,HPLC,pH 5.5,<10 µM
O=C1NN=C(C(O)c2ccccc2)C1(O)c1ccccc1,-,-,substrate cleavage / HPLC,-,>50 µM
CCC(=O)N[C@@H](CSCCOCCOCCSC[C@H](NC(=O)CC)C(=O)N[C@@H](CC(C)C)C(=O)N[C@@H](Cc1ccccc1)C(N)=O)C(=O)N[C@@H](Cc1ccccc1)C(=O)O,-,-,-,-,150 µM
CC(C)[C@H](NC(=O)N(C)Cc1ccccn1)C(=O)N[C@@H](Cc1ccccc1)[C@H](O)[C@H](O)[C@H](Cc1ccccc1)NC(=O)[C@@H](NC(=O)N(C)Cc1ccccn1)C(C)C,-,-,fluorescence,-,<0.001 µM
O=C(O)c1ccccc1C(=O)CCC(=O)c1ccccc1C(=O)O,-,-,substrate cleavage / HPLC,-,>50 µM
Nc1c(N=Nc2ccc([N+](=O)[O-])cc2)c(S(=O)(=O)O)cc2cc(S(=O)(=O)O)c(N=Nc3ccccc3)c(O)c12,-,-,HPLC,-,7 µM
CNC(=O)C(O)(C(=O)N[C@@H](Cc1ccccc1)[C@H](O)CNC[C@@H](O)[C@H](Cc1ccccc1)NC(=O)OC(C)(C)C)C(C)(C)C,-,-,HPLC,pH 5.5,<10 µM
CC(C)[C@H](NC(=O)[C@H](CCCN=C(N)N)NC(=O)N[C@@H](Cc1ccccc1)C(=O)O)C(=O)N[C@@H](C=O)Cc1ccccc1,-,-,-,-,32 µM
CC(C)[C@H](NC(=O)[C@@H](O)Cc1ccccc1)C(=O)N[C@@H](Cc1ccccc1)[C@H](O)CNC[C@@H](O)[C@H](Cc1ccccc1)NC(=O)OC(C)(C)C,-,-,HPLC,pH 5.5,<10 µM
CC(C)(C)NC(=O)[C@@H]1CCCN1C(=O)[C@@H](O)[C@H](Cc1ccccc1)NC(=O)[C@H](CC(N)=O)NC(=O)COc1cccc2ccccc12,BRU,-,substrate cleavage,-,0.0013 µM
CC(C)[C@H](NC(=O)COc1cccc2cnccc12)C(=O)N[C@@H](Cc1ccccc1)[C@H](O)C(=O)N1CSC[C@H]1C(=O)NC(C)(C)C,-,-,HPLC,-,0.0066 µM
CC(C)[C@H](NC(=O)COc1cccc2ccccc12)C(=O)N[C@@H](Cc1ccccc1)[C@H](O)C(=O)N1[C@H](C(=O)NC(C)(C)C)C[C@@H]2CCCC[C@@H]21,BRU,-,substrate cleavage,-,0.0057 µM
Cc1cc(NC(=O)Nc2ccc(N=Nc3cc(S(=O)(=O)O)c4cccc(S(=O)(=O)O)c4c3)c(C)c2)ccc1N=Nc1cc(S(=O)(=O)O)c2cccc(S(=O)(=O)O)c2c1,-,-,HPLC,-,20 µM
CCOC(=O)[C@@H](Cc1ccc(O)c(O)c1)OC(=O)/C=C/c1ccc(O)c(O)c1/C=C/c1ccc(O)c(O)c1,-,-,fluorescence,-,12.03 µg/mL
CC(C)C[C@H](NC(=O)[C@@H](NC(=O)CCCCCCCCCCCCCCC(=O)N[C@@H](C[N+](=O)[O-])C(=O)N[C@@H](Cc1ccccc1)C(=O)O)C(C)O)C(=O)N[C@@H](Cc1ccccc1)C(N)=O,-,-,-,-,3.6 µM
O=C(N[C@@H](Cc1ccccc1)[C@@H](O)C[C@]1(Cc2ccccc2)CCN([C@@H]2CS(=O)(=O)Cc3ccccc32)C1=O)O[C@H]1CCOC1,-,-,-,-,0.0018 µM
O=S(=O)(O)c1cc(N=Nc2ccc(O)cc2)ccc1/C=C/c1ccc(N=Nc2ccc(O)cc2)cc1S(=O)(=O)O,-,-,HPLC,-,29 µM
CC(C)C[C@H](NC(=O)[C@H](Cc1ccc(N)cc1)NC(=O)CCCCCCCCCCCCCCC(=O)N[C@@H](CC(N)=O)C(=O)N[C@@H](Cc1ccccc1)C(=O)O)C(=O)N[C@@H](Cc1ccccc1)C(N)=O,-,-,-,-,1.01 µM
Nc1cc(N)c(N=Nc2cccc3c(S(=O)(=O)O)cccc23)cc1N=Nc1cc([N+](=O)[O-])ccc1O,-,-,HPLC,-,4 µM
CC(C)(C)OC(=O)N[C@@H](Cc1ccccc1)[C@H](O)CNC[C@@H](O)[C@H](Cc1ccccc1)NC(=O)OC1CCOC1,-,-,HPLC,pH 5.5,<10 µM
CC(C)[C@H](NC(=O)[C@H](CCCN=C(N)N)NC(=O)N[C@@H](Cc1ccc(O)cc1)C(=O)O)C(=O)N[C@@H](C=O)Cc1ccccc1,-,-,-,-,58 µM
O=S(=O)(O)c1ccccc1N=Nc1c(S(=O)(=O)O)cc2cc(S(=O)(=O)O)c(N=Nc3ccccc3S(=O)(=O)O)c(O)c2c1O,-,-,HPLC,-,290 µM
CC(C)[C@H](NC(=O)OCc1ccccc1)C(=O)N[C@@H](Cc1ccccc1)[C@@H](O)[C@H](CO)[C@H](Cc1ccccc1)NC(=O)[C@@H](NC(=O)OCc1ccccc1)C(C)C,-,-,-,-,0.037 µM
O=c1oc(-c2ccccc2)cc(O)c1Cc1ccccc1,-,-,HPLC,pH 5.2,78 µM
COc1ccc(C(=O)O[C@H]2[C@@H](OC)OC[C@H](O)[C@@H]2O)cc1,-,-,substrate cleavage / HPLC,-,>50 µM
CC(C)(C)NC(=O)[C@@H]1CSCN1C(=O)[C@@H](O)[C@H](Cc1ccccc1)NC(=O)[C@H](CC(N)=O)NC(=O)OCc1ccccc1,-,-,HPLC,-,0.45 µM
CC(C)C[C@H](NC(=O)[C@@H](NC(=O)CCCCCCCCCCCCCCC(=O)N(O)[C@@H](CCC(N)=O)C(=O)N[C@@H](Cc1ccccc1)C(=O)O)C(C)O)C(=O)N[C@@H](Cc1ccccc1)C(N)=O,-,-,-,-,4.07 µM
CC(C)CN(C[C@@H](O)[C@H](Cc1ccccc1)NC(=O)[C@H](CC(N)=O)NC(=O)c1ccc2ccccc2n1)C(=O)NC(C)(C)C,-,-,HPLC,-,0.0023 µM